Assay results taken from article PMC3517363.
Like-named read-outs stand apart in the source and are kept apart here.

The chains behind the UniProt entries cited, without tags or fusion partners.
UniProt P03069, whole entry: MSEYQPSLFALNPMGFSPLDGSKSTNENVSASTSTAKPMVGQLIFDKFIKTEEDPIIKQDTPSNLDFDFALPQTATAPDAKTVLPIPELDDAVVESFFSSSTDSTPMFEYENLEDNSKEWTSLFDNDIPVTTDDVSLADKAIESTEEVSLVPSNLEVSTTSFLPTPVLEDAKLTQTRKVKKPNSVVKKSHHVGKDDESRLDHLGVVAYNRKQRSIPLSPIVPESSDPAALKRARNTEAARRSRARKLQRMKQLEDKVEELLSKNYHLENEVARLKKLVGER

Columns and labels:
Assay in all cases: two-hybrid
[1] = biological target: T25-Zip (UniProt P03069)
[2] = biological target: T25-Zip (UniProt P03069); remark: listed apart in the source
[3] = biological target: T25-Zip (UniProt P03069); remark: listed apart in the source
[4] = biological target: T25-Zip (UniProt P03069); remark: listed apart in the source
[5] = biological target: T25-Zip (UniProt P03069); remark: listed apart in the source

T18-Zip (from UniProt P03069 1-281) (domain or fragment)
β-galactosidase activity (units/mg dry weight of bacteria) [1]: 1520
β-galactosidase activity [2]: 1450 units
β-galactosidase activity (units/mg dry weight of bacteria) [2]: 1780
β-galactosidase activity (units/mg dry weight of bacteria) [3]: 1550
β-galactosidase activity (units/mg dry weight of bacteria) [4]: 1500
β-galactosidase activity (units/mg dry weight of bacteria) [5]: 1600
